A mixed list of measured activities; the numbers were collected in NIAID ChemDB.

Shared fields: whole-cell or culture tests; species: Human cytomegalovirus; read by: virus yield; read-out: EC90

An empty or dashed field is not shown. ECn is the concentration giving n% inhibition of infection, replication or growth. a–b is a range or a potency band. Conditions beyond the fields shown may differ between rows.

compound	strain or isolate	cells	result
CC(C)Nc1nc2cc(Cl)c(Cl)cc2n1[C@H]1O[C@@H](CO)[C@H](O)[C@@H]1O	2916 (bdcrb maribavir-resistant)	HFF	57 µM
CC(C)Nc1nc2cc(Cl)c(Cl)cc2n1[C@H]1C[C@H](O)[C@@H](CO)O1	TOWNE	HFF	18 µM
O=C(NCc1ccc(Cl)cc1)c1c[nH]c2ccc(C#CCO)cc2c1=O	DAVIS		4.7 µM
Nc1nc2cc(Cl)c(Cl)cc2n1[C@H]1C[C@H](O)[C@@H](CO)O1	TOWNE	HFF	3.8 µM
CN(C)c1cccc2c(S(=O)(=O)Nc3ccc(NC(=O)C(C)(C)CO)cc3)cccc12	2916R (1263W94-resistant)	HFF	0.9 µM
COc1cc(OC)c(NC(=S)Nc2ccc(NC(C)=O)cc2)cc1Cl	16 isolates		0.384 µM
OC[C@H]1O[C@@H](n2c(Cl)nc3cc(Cl)c(Cl)cc32)[C@H](O)[C@@H]1O			0.2 µM
OC[C@H]1O[C@@H](n2c(Br)nc3cc(Cl)c(Cl)cc32)[C@H](O)[C@@H]1O	TOWNE	HFF	0.9 µM
Nc1nc2c(ncn2COC(CO)CO)c(=O)[nH]1	TOWNE		0.7 µM
OC[C@H]1O[C@@H](n2c(Br)nc3cc(Cl)c(Cl)cc32)[C@H](O)[C@@H]1O	TOWNE	HFF	0.31 µM
Nc1nc2c(ncn2COC(CO)CO)c(=O)[nH]1	DAVIS	HFF	2.4 µM
O=C(NCc1ccc(Cl)cc1)c1c[nH]c2ccc(CCCO)cc2c1=O	DAVIS		3.9 µM
Nc1nc2c(ncn2COC(CO)CO)c(=O)[nH]1	TOWNE	HFF	2.4 µM
Nc1ncnc2c1ncn2C=C1CC1CO	TOWNE	KB	1–2 µM
[N-]=[N+]=Nc1nc2cc(Cl)c(Cl)cc2n1[C@H]1C[C@H](O)[C@@H](CO)O1	TOWNE	HFF	38 µM

A second listing of 2 rows from above:

compound,strain or isolate,cells,result
Nc1nc2c(ncn2COC(CO)CO)c(=O)[nH]1,TOWNE,HFF,2.4 µM
CC(C)Nc1nc2cc(Cl)c(Cl)cc2n1[C@H]1O[C@@H](CO)[C@H](O)[C@@H]1O,2916 (bdcrb maribavir-resistant),HFF,57 µM